Measured values from several laboratories, pooled; numbers as filed in NIAID ChemDB.

Shared fields: whole-cell or culture tests; organism: HIV-1; method: p24; read-out: EC50

ECn: concentration that inhibits the pathogen or its effect by n%. Lines come from different laboratories, so protocols vary. Blank or dashed fields: not listed here. Two numbers with a dash give a range or band.

| compound | changes | strain or isolate | cells | setting | result |
|---|---|---|---|---|---|
| COC(=O)N[C@H](C(=O)N[C@@H](Cc1ccccc1)[C@@H](O)CN(Cc1ccc(-c2ccccn2)cc1)NC(=O)[C@@H](NC(=O)OC)C(C)(C)C)C(C)(C)C |  | BaL | PBMC |  | 0.00438 µM |
| CC(C)(C)NC(=O)[C@@H]1C[C@@H]2CCCC[C@@H]2CN1C[C@@H](O)[C@H](Cc1ccccc1)NC(=O)[C@H](CC(N)=O)NC(=O)c1ccc2ccccc2n1 | MDR | MM | PBMC |  | 0.37 µM |
| COC(=O)[C@H](C)NP(=O)(OC[C@H]1O[C@@H](n2cc(C)c(=O)[nH]c2=O)C[C@@H]1N=[N+]=[N-])Oc1ccc(Br)cc1 |  |  | PBMC |  | 0.005 µM |
| CN(CCO)c1ccc(-c2nc3ccccc3c(=O)[nH]2)cc1 |  |  | OM-10.1 |  | 14 µM |
| CC(C)(C)NC(=O)[C@@H]1CN(Cc2cccnc2)CCN1C[C@@H](O)C[C@@H](Cc1ccccc1)C(=O)N[C@H]1c2ccccc2C[C@H]1O | PR-L10I K20R M36I/V P63L/S L90M | BR97 (PR L10I K20R M36I/V P63L/S L90M) | PBMC |  | 0.003 µM |
| CC1CNCCN1S(=O)(=O)c1cccc2cnccc12 |  |  | U1/HIV-1(PMA) + U1 |  | 2 µM |
| Cc1cn([C@H]2C[C@H](N=[N+]=[N-])[C@@H](CO)O2)c(=O)[nH]c1=O |  | IIIB | PBMC |  | 0.02 µM |
| Cn1c2ccccc2c2c3c(c4c5ccccc5n(CCC#N)c4c21)CNC3=O |  |  | U1/HIV-1(PMA) + U1 |  | 0.04 µM |
| COc1c(O)c(Br)c2c(c1OC)-c1c(c(Br)c(O)c(OC)c1OC)C[C@H](C)[C@H](C)C2 |  | IIIB | H9 |  | 0.13 µM |
| CCC(c1cccc(NS(=O)(=O)c2ccc(C#N)cn2)c1)c1c(O)c2c(oc1=O)CCCCC2 |  | IIIB | H9 |  | >3 µM |
| CCCc1cc(=O)oc2c3c(c4c(c12)OC(C)(C)CC4)O[C@@H](C)[C@H](C)[C@@H]3O |  | RF | CEM + CEM-SS |  | 0.11 µM |
| Cc1cn([C@H]2C[C@H](N=[N+]=[N-])[C@@H](COC(=O)C(=O)N[C@@H](CC(C)C)C(=O)O)O2)c(=O)[nH]c1=O |  | IIIB | MT-2 |  | 0.05 µM |
| Cn1c2ccccc2c2c3c(c4c5ccccc5n(CC(F)F)c4c21)CNC3=O |  |  | U1/HIV-1(PMA) + U1 |  | 0.08 µM |
| Cc1nc(S(=O)(=O)N2CCN(C[C@@H](O)C[C@@H](Cc3ccccc3)C(=O)N[C@H]3c4ccccc4C[C@H]3O)[C@H](C(=O)NC(C)(C)C)C2)c(C)s1 |  | IIIB | MT-4 |  | <0.2 µM |
| CCC(c1cccc(NS(=O)(=O)c2ccc(C#N)cn2)c1)c1c(O)c2c(oc1=O)CCCC2 |  | IIIB | H9 |  | >3 µM |
| CCO/N=C(\c1ccc(Br)cc1)C1CCN(C2(C)CCN(C(=O)c3c(C)cc[n+]([O-])c3C)CC2)CC1 |  | NL4-3 X4 | PBMC |  | >1 µM |
| O=c1cc(Cc2c(F)cccc2F)nc(SC2CCCC2)[nH]1 |  | IIIB | MT-4 |  | <0.3 µM |
| CC(C)(C)NC(=O)[C@@H]1C[C@H](Cl)CN1C(=O)[C@@H](O)[C@H](Cc1ccccc1)NC(=O)[C@H](CC(N)=O)NC(=O)c1noc2ccccc12 |  | IIIB | MOLT-4/HIV-1(IIIB) + MOLT-4 |  | <3.2 µM |
| Cc1cn([C@H]2C[C@H](N=[N+]=[N-])[C@@H](COC(=O)C(=O)N[C@H](C(=O)O)C(C)C)O2)c(=O)[nH]c1=O |  | IIIB | MT-2 |  | 0.025 µM |
| Cc1c(-c2cnccn2)ssc1=S |  |  | ACH-2(PMA+) + ACH2 |  | >60 µM |
| CC(C)(C)NC(=O)[C@@H]1CNCCN1C[C@@H](O)C[C@@H](Cc1ccccc1)C(=O)N[C@H]1c2ccccc2C[C@H]1O |  | IIIB | MT-4 |  | <3 µM |
| CC(=O)OC[C@]12[C@H](OC(C)=O)[C@H](OC(C)=O)[C@@H]3[C@@H](OC(C)=O)[C@@]14O[C@@]3(C)COC(=O)c1cnccc1[C@@H](C)[C@@](C)(O)C(=O)O[C@@H]([C@H](OC(=O)c1ccoc1)[C@@H]2OC(C)=O)C4(C)O |  | IIIB | H9 |  | 0.1 µg/mL |
| CCc1cc(NCc2nc3c(Cl)ccc(Cl)c3o2)c(=O)[nH]c1C | RT-M41L D67N T215Y | Clinical isolate (RT M41 D67N T215Y) | PBMC |  | <0.2 µM |
| CC(C)(C)NC(=O)[C@@H]1CN(CCOCc2ccccc2)CCN1C[C@@H](O)C[C@@H](Cc1ccccc1)C(=O)N[C@H]1c2ccccc2C[C@H]1O |  | IIIB | MT-4 |  | <0.1 µM |
| CC(C)=CCOc1cc(NC(=S)c2ccoc2C)ccc1Cl |  | 92US657 Clinical isolate | PBMC |  | 0.00772 µg/mL |
| CC1(C)Oc2ccc3ccc(=O)oc3c2[C@@H](OC(=O)C23CCC(C)(C(=O)O2)C3(C)C)[C@H]1OC(=O)C12CCC(C)(C(=O)O1)C2(C)C |  | IIIB | H9 |  | 0.000256 µM |
| CC(C)CN(C[C@@H](O)[C@H](Cc1ccccc1)NC(=O)O[C@H]1CCOC1)S(=O)(=O)c1ccc(N)cc1 |  | 006 | PBMC |  | 0.0543 µM |
| CCCCN1C(=O)[C@@H]([C@H](O)C2CCCCC2)NC(=O)C12CCN(Cc1ccc(Oc3ccc(C(=O)O)cc3)cc1)CC2 |  | NL4-3 X4 | PBMC |  | >1 µM |
| NC(=O)c1[nH]c2ccc(Cl)cc2c1S(=O)(=O)c1ccccc1 |  | IIIB Ba-L | Macrophage |  | 2 µM |
| COC1N(C2CC(N=[N+]=[N-])C(CO)O2)C(=O)NC(=O)C1(C)Br |  |  | PBMC |  | 0.006 µM |
| COc1cccc2cc(C(=O)N[C@@H](CC(N)=O)C(=O)N[C@@H](Cc3ccccc3)[C@H](O)C(=O)N3C[C@@H](Cl)C[C@H]3C(=O)NC(C)(C)C)oc12 |  | IIIB | CEM |  | <0.06 µM |
| CCCCN1C(=O)C(CC2CCCCC2)NC(=O)C12CCN(Cc1cnc(-c3ccccc3)[nH]1)CC2 |  | NL4-3 | PBMC |  | >1 µM |
| CN=C1CN=C(c2ccc[nH]2)c2cc(Cl)ccc2N1 |  | Ba-L-85 | Macrophage |  | 0.7–2 µM |
| CC(=O)OC[C@]12[C@H](OC(C)=O)[C@H](OC(C)=O)[C@@H]3[C@@H](OC(C)=O)[C@@]14O[C@@]3(C)COC(=O)c1cccnc1CC[C@H](C)C(=O)O[C@@H]([C@H](OC(=O)c1ccccc1)[C@@H]2OC(C)=O)C4(C)O |  | IIIB | H9 |  | >100 µg/mL |
| CCCc1cc(=O)oc2c3c(c4c(c12)OC(C)(C)C=C4)O[C@@H](C)[C@H](C)[C@@H]3O |  | RF | CEM + CEM-SS |  | 0.24 µM |
| NOCc1c(F)cccc1Cl |  | IIIB | U-937 |  | 1.9 µg/mL |
| Cc1cn([C@H]2C[C@H](N=[N+]=[N-])[C@@H](CO)O2)c(=O)[nH]c1=O | RT-M184V |  | CD4+HELA + HeLa |  | 0.07 µM |
| Cc1cn([C@H]2C[C@H](N=[N+]=[N-])[C@@H](CO)O2)c(=O)[nH]c1=O |  | 7932 CLADE B CLADE B | PBMC |  | 0.002 µM |
| COc1ccc(CN[C@@H](C(=O)N[C@H](C(=O)NCc2nc3ccccc3[nH]2)C(C)C)[C@H](O)[C@H](Cc2ccccc2)NC(=O)[C@@H](NC(=O)OCc2ccccc2)C(C)(C)C)cc1 |  | SF162 | Monocytes + Monocyte | clinical isolate | 0.018 µM |
| CN1CCC(c2c(O)cc(O)c3c(=O)cc(-c4ccccc4Cl)oc23)[C@H](O)C1 |  |  | OM-10.1 |  | 0.003 µM |
| C#Cc1c(C(N)=O)ncn1[C@@H]1O[C@H](CO)[C@@H](O)[C@H]1O |  | IIIB | PBL |  | >0.5 µM |
| Cc1c(O)cccc1C(=O)N[C@@H](CSc1ccccc1)[C@H](O)CN1C[C@H]2CCCC[C@H]2C[C@H]1C(=O)NC(C)(C)C | MDR | TM | PBMC |  | >1 µM |
| O=C(O)c1cc(O)cc(O)c1N=Nc1ccc(/C=C/c2ccc(N=Nc3c(O)cc(O)cc3C(=O)O)cc2S(=O)(=O)O)c(S(=O)(=O)O)c1 |  | CLADE C | PBMC |  | 0.5 µg/mL |
| CC(C)(C)NC(=O)[C@@H]1CN(S(=O)(=O)c2cccnc2)CCN1C[C@@H](O)C[C@@H](Cc1ccccc1)C(=O)N[C@H]1c2ccccc2C[C@H]1O |  | IIIB | MT-4 |  | <0.2 µM |
| CC(C)(C)NC(=O)[C@@H]1CCCN1C(=O)[C@@H](O)[C@H](Cc1ccccc1)NC(=O)[C@H](CC(N)=O)NC(=O)c1cnc2ccccc2n1 |  | IIIB | MOLT-4/HIV-1(IIIB) + MOLT-4 |  | <1 µM |
| CCc1cc(NCc2nc3c(Cl)ccc(Cl)c3o2)c(=O)[nH]c1C | RT-K101E | NL4-3 | MT-4 |  | 0.8 µM |
| Nc1ccc(-c2nc3cc(Cl)ccc3c(=O)[nH]2)cc1 |  |  | OM-10.1 |  | 4 µM |
| Cc1cn([C@H]2C[C@H](N=[N+]=[N-])[C@@H](CO)O2)c(=O)[nH]c1=O | MDR | MM | PBMC |  | 0.04 µM |
| c1cc(CN2CCCNCCNCCCNCC2)ccc1CN1CCCNCCNCCCNCC1 |  | 92TH001 CLADE E R5 | PBMC |  | ~0.5 µM |
| Cc1c(Cc2c(F)cccc2F)nc(SC2CCCC2)[nH]c1=O |  | IIIB | MT-4 |  | <0.15 µM |
| COC(=O)C[C@@H]1C(=O)CC[C@H](C)C(=O)O[C@@H]2[C@@H]3[C@@H](OC(C)=O)[C@@]45O[C@@]3(C)COC(=O)c3cnccc3[C@@H](C)[C@](C)(O)C(=O)O[C@@H]([C@H](OC(C)=O)[C@H](OC(C)=O)[C@@]4(COC1=O)[C@@H]2OC(C)=O)C5(C)O |  | IIIB | H9 |  | <0.1 µg/mL |
| CC12OC[C@H]3O[C@H](C[C@@H]3N=[N+]=[N-])N1C(=O)NC(=O)[C@@]2(C)Br |  | IIIB | MT-4 |  | 0.008 µM |
| CCCCN1C(=O)C(CC2CCCCC2)NC(=O)C12CCN(Cc1ccc3c(c1)OCCO3)CC2 |  | NL4-3 | PBMC |  | >1 µM |
| CC(C)(C)NC(=O)[C@@H]1C[C@@H]2CCCC[C@@H]2CN1C[C@@H](O)[C@H](Cc1ccccc1)NC(=O)[C@H](CC(N)=O)NC(=O)c1ccc2ccccc2n1 |  | BaL | PBMC |  | 0.0172 µM |
| CCC(c1cccc(NS(=O)(=O)c2ccc(C#N)cn2)c1)c1c(O)c2c(oc1=O)CCCCCC2 |  | IIIB | H9 |  | 2.6 µM |
| CC(C)(C)NC(=O)[C@@H]1C[C@@H]2CCCC[C@@H]2CN1C[C@@H](O)C[C@@H](Cc1ccccc1)C(=O)N[C@H]1c2ccccc2C[C@H]1O |  | IIIB | MT-4 |  | <0.4 µM |
| CCC(C1=C(O)C2CCCC2OC1=O)c1cccc(NS(=O)(=O)c2ccc(C#N)cn2)c1 |  | IIIB | H9 |  | 2.9 µM |
| O=c1[nH]cnc2c1ncn2[C@H]1CC[C@@H](CO)O1 |  | HXB2D | CBMC |  | 6.4 ± 0.4 µM |
| Cc1cn([C@H]2C[C@H](N=[N+]=[N-])[C@@H](COC(=O)c3ccncc3)O2)c(=O)[nH]c1=O |  | IIIB | PBMC |  | 0.025 µM |